Measurements: patent US20240067634A1, “INHIBITORS OF NEF DOWNMODULATION” (priority 2020, published 2024)
pIC50: −log10 of the molar value.

Biological target: HIV-1 Nef (Human immunodeficiency virus 1, UniProt P03406)
Experiment: Anti-Nef activity: reversal of Nef-dependent MHC-I HLA-A2 downmodulation, flow cytometry
Format: cell-based
Experimental: Determination of anti-Nef activity: To identify molecules with enhanced Nef inhibition, decreased toxicity and decreased inhibition of lysosomes, the analogs of the disclosure are screened initially for Nef inhibitory activity using a high throughput assay in HIV-1 infected CEM-A2 cells. These cells are infected with an HIV-1 reporter construct for 48 hours and then exposed to potential inhibitors for 24 hours. Cells are harvested and stained for flow cytometric analysis of HLA-A2 surface expression, and the fold downmodulation of HLA-A2 are calculated by comparing expression on uninfected cells to that on infected cells.
PBMCs is isolated from leukopaks, CD8-depleted, and stimulated with PHA.
To assess their toxicity, an MTT assay was used, which measures […] dehydrogenase activity. Metabolically active cells reduce MTT to MTT-formazan leading to a color change. For this analysis, PHA-activated primary human PBMCs were exposed to a range of concentrations of each drug continuously for 72 hours of culture.

Row | Substance | pIC50
1 | 19-Deoxy-20-ene Baf A1 | 6.83
2 | 19-Deoxy-21-Methoxy Baf A1 | 7.70
3 | 19-Deoxy-21-allylester Baf A1 | 7.25
